Pooled drug test results. Numbers come from NIAID ChemDB, via PubChem.

Shared fields: growth or infection tests; species: Mycobacterium tuberculosis

Neighbouring rows are from separate reports. A number after MIC or MFC names an inhibition level or a share of isolates. Inhibition is in % at the dose shown (toxicity tests: loss of growth or viability). MIC bound: limit read from a one-dose screen. ECn: concentration that inhibits the pathogen or its effect by n%. Two numbers with a dash give a range or band. An empty or dashed field is not shown.

compound,mutations,setting,measure,method,tested at,cells,strain,value
CCCCCCCCCCCCCCC(Oc1cccc(C)c1)C(=O)O,-,-,MIC,-,-,-,H37Rv,10 µg/mL
CN1c2ccccc2S(=O)(=O)n2c(CCc3ccccc3)nnc21,-,-,MIC bound,-,-,-,H37Rv,>6.25 µg/mL
CC(C)[C@H](NC(=O)OCc1ccccc1)c1cnc(-c2ccc([N+](=O)[O-])cc2)[nH]1,-,14 d,MIC,-,-,-,My 331/88,16 µM
CO[C@H]1CCC[C@H]2C1=C(C(=O)O)N1C(=O)[C@H]([C@@H](C)O)[C@@H]21,-,-,MIC50,luminescence,-,THP-1,H37Rv,1.65 µM
NC1CON(Cc2ccc(F)cc2)C1=O,-,-,MIC,-,-,-,-,>2500 µM
O=S(=O)(Nc1ncccn1)c1nnc2sc3ccccc3n12,-,-,MIC,-,-,-,H37Rv,100 µg/mL
CN[C@@H]1[C@H](O[C@H]2[C@H](O[C@H]3[C@H](O)[C@@H](O)[C@H](N=C(N)N)[C@@H](O)[C@@H]3N=C(N)N)O[C@@H](C)[C@]2(O)C=O)O[C@@H](CO)[C@H](O)[C@H]1O,-,-,MIC,-,-,-,U118,0.25 µg/mL
CC1=CCC2C(C1)C2(C)C,-,-,MIC,resazurin,-,-,H37Rv,8.16 µg/mL
CCc1c2oc(C(=O)c3ccc(Cl)cc3)cc2n2ccccc12,-,-,inhibition,BACTEC,12.5 µg/mL,-,H37Rv,-11%
CCN1CCc2c(sc(N)c2C(=O)NC2C3CC4CC(C3)CC2C4)C1,-,-,MIC,resazurin,-,-,H37Rv,>100 µg/mL
O=[N+]([O-])c1cnc(NS(=O)(=O)c2nnc3sc4ccccc4n23)s1,-,-,MIC,-,-,-,H37Rv,2 µg/mL
COc1cc2ccc(=O)oc2c2ccoc12,-,-,MIC90,resazurin,-,-,H37Ra,400 µg/mL
CCN1CCc2c(sc(NC(=O)c3c(F)c(F)c(F)c(F)c3F)c2C#N)C1,-,-,MIC,turbidity,-,-,ATCC35838,13 µM
Nc1ncnc2c1ncn2[C@@H]1O[C@H](COS(=O)(=O)NC(=O)c2ccccc2O)[C@@H](O)[C@H]1O,-,-,MIC,-,-,-,-,0.29 µM
CC(C)C[C@H](NC(=O)OCc1ccccc1)c1cnc(-c2ccccc2)[nH]1,-,21 d,MIC,-,-,-,My 331/88,>250 µM
NS(=O)(=O)c1nnc2sc3ccccc3n12,-,-,MIC,-,-,-,H37Rv,10 µg/mL
CCOc1ccc(/C=C2\C(=O)N=C(N)N=C2N)cc1OCC,-,-,MIC bound,BACTEC,-,-,H37Rv,>12.5 µg/mL
CCN1CCc2c(sc(NC(=O)c3c(F)c(F)c(F)c(F)c3F)c2C(=O)NC)C1,-,-,EC90,turbidity,-,-,ATCC 35822,3 µM
C[C@@H](O)[C@H]1C(=O)N2C(C(=O)O)=C([C@H]3CCCO3)S[C@H]12,-,-,MIC,resazurin,-,-,H37Rv,15.7 µM
COC(=O)CSc1nnc(-c2ncc([N+](=O)[O-])n2C)s1,-,-,MIC,-,-,-,H37Rv,6.25 µg/mL
O=C1C2=C(c3ccccc31)C(c1ccccc1Cl)N1C(=O)CSC1=N2,-,-,inhibition,BACTEC,12.5 µg/mL,-,H37Rv,26%
CC(C)C[C@@H]1NC(=O)[C@H](Cc2c[nH]c3ccccc23)NC(=O)[C@H](CCCCN)NC(=O)[C@H](CC(N)=O)NC(=O)[C@H](C(C)C)NC(=O)[C@@H](CC(C)C)NC1=O,-,-,MIC90,turbidity,-,-,CDC1551,>30 µM
CCCCCCCCCCCCCCC(Oc1ccc(Cl)cc1Cl)C(=O)O,-,-,MIC,-,-,-,H37Rv,100 µg/mL
N#CNC1=NC(N)C(c2nc3ccccc3[nH]2)=C(CCCC(=O)Nc2cccc([N+](=O)[O-])c2)N1,-,-,inhibition,BACTEC,12.5 µg/mL,-,H37Rv,18%
C=C[C@@H](O)C#CC#C[C@@H](O)/C=C\CCCCCCC,-,-,MIC90,resazurin,-,-,H37Ra,6.25 µg/mL
Cc1ccc(/C=C/C(=O)N2C/C(=C\c3ccccc3)C(=O)/C(=C/c3ccccc3)C2)cc1,-,-,EC50,-,-,-,H37Rv,>6.25 µg/mL
C=C1C(=O)OC2C1C(OC(=O)/C(C)=C/C)CC(=C)C1C(O)C3OC3(C)C21O,-,-,inhibition,BACTEC,12.5 µg/mL,-,H37Rv,0%
Nc1ncnc2c1ncn2[C@@H]1O[C@H](CNS(=O)(=O)C(F)(F)C(=O)c2ccccc2O)[C@@H](O)[C@H]1O,-,-,MIC,-,-,-,-,>100 µM
Cc1ccccc1OC/C(N)=N\NC(=O)c1ccncc1,-,-,MIC,-,-,-,H37Rv(ATCC25584),25 µg/mL
N#Cc1c(NC(=O)c2c(F)c(F)c(F)c(F)c2F)sc2c1CCOC2,-,-,EC90,low oxygen,-,-,-,18 µM
Nc1ncnc2c1ncn2[C@@H]1O[C@H](COP(=O)([O-])CC(=O)c2ccccc2O)[C@@H](O)[C@H]1O,-,-,MIC,-,-,-,-,>100 µM
O=C(/C=C/C(=O)N1C/C(=C\c2ccccc2)C(=O)/C(=C/c2ccccc2)C1)Nc1ccc([N+](=O)[O-])cc1,-,-,inhibition,-,6.25 µg/mL,-,H37Rv,98%
CC(C)c1ccccc(=O)c1O,-,-,inhibition,BACTEC,128 µg/mL,-,H37Rv,100%
O=C(CSc1nnc(-c2ccc([N+](=O)[O-])o2)s1)OCc1ccccc1,-,-,MIC,-,-,-,H37Rv,0.78 µg/mL
CCCCCCCCCCCCCCC(Oc1cccc(Cl)c1)C(=O)O,-,-,MIC,-,-,-,H37Rv,100 µg/mL
Cc1ccc(C)c(NS(=O)(=O)c2nnc3sc4ccccc4n23)c1,-,-,MIC,-,-,-,H37Rv,>200 µg/mL
CCCOC(=O)CSc1nnc(-c2ncc([N+](=O)[O-])n2C)s1,-,-,MIC,-,-,-,H37Rv,0.78 µg/mL
Nc1nc2c(C(=O)NCc3cccs3)nnn2c2cccc(Cl)c12,-,-,MIC bound,BACTEC,-,-,H37Rv,>12.5 µg/mL
C=C[C@H](OC(C)=O)c1ccc(OC(C)=O)cc1,-,-,MIC,-,-,-,Clinical isolates,0.1–0.5 µg/mL
O=C1/C(=C/c2ccccc2)CN(C(=O)c2ccc(/C=C/C(=O)c3ccc(Cl)cc3)cc2)C/C1=C\c1ccccc1,-,-,inhibition,-,6.25 µg/mL,-,H37Rv,0%
CSc1cc(=O)n2c3ccccc3c3ccnc1c32,-,-,MIC,BACTEC,-,-,H37Rv,≥12.8 µg/mL
CCOC(=O)c1c(NC(=O)c2c(F)c(F)c(F)c(F)c2F)sc2c1CCNC2=O,rpoB S522L mutant,-,EC90,turbidity,-,-,H37Rv,1.6 µM
O=C(O)c1ccc(=O)[nH]n1,-,-,MIC bound,BACTEC,-,-,H37Rv,>12.5 µg/mL
CCCCCCCCCCC(Oc1ccc(Cl)cc1Cl)C(=O)O,-,-,MIC,-,-,-,H37Rv,10 µg/mL
CC(C)C[C@@H]1NC(=O)[C@H](Cc2c[nH]c3ccccc23)NC(=O)[C@@H](CCCCN)NC(=O)[C@H](CC(N)=O)NC(=O)[C@H](C(C)C)NC(=O)[C@@H](CC(C)C)NC1=O,-,-,MIC90,turbidity,-,-,CDC1551,0.99 µM
CN(C)c1ccc(/C=c2\[nH]c(=O)/c(=C/c3ccc(N(C)C)cc3)[nH]c2=O)cc1,-,-,MIC bound,BACTEC,-,-,H37Rv,>12.5 µg/mL
CO/N=C(\C(=O)N[C@@H]1C(=O)N2C(C(=O)O)=CCS[C@H]12)c1csc(N)n1,-,-,inhibition,-,100 µg/mL,-,-,88%
CCOC(=O)c1ncc(Cl)cc1NC(=O)CC(=O)Nc1cc(Cl)cnc1C(=O)OCC,-,-,MIC,BACTEC,-,-,H37Rv,12.5 µg/mL
O=S(=O)(Nc1nccs1)c1nnc2sc3ccccc3n12,-,-,MIC,-,-,-,H37Rv,50 µg/mL
O=C1N=C(c2ccccc2)C(c2ccccc2)=N1,-,-,MIC bound,BACTEC,-,-,H37Rv,>12.5 µg/mL
CCCCCCCCCCCCCCC(Oc1ccc(C)cc1)C(=O)O,-,-,MIC,-,-,-,H37Rv,1 µg/mL
O=c1ccc2ccc3occc3c2o1,-,-,MIC90,resazurin,-,-,H37Ra,400 µg/mL
CC1COc2c(N3CCN(C)CC3)c(F)cc3c(=O)c(C(=O)O)cn1c23,-,-,MIC,-,-,-,H37Ra,0.25 µg/mL
COc1ccc(OC/C(N=Cc2ccncc2)=N\NC(=O)c2ccncc2)cc1,-,-,MIC,-,-,-,INH-r,50 µg/mL
CCN1CCc2c(sc(NC(=O)c3c(F)c(F)c(F)c(F)c3F)c2C(N)=O)C1,-,-,inhibition,turbidity,11 µM,-,ATCC 35838 RIF-R2 rifampicin-resistant,90%
Cc1ccc(NC(=O)/C=C/C(=O)N2C/C(=C\c3ccccc3)C(=O)/C(=C/c3ccccc3)C2)cc1,-,-,EC50,-,-,-,H37Rv,>6.25 µg/mL
CSC(=S)NNC(C)c1nccc2ccccc12,-,-,MIC,-,-,-,KM-R,3.2 µg/mL
O=c1cc(O)cc(NS(=O)(=O)c2nnc3sc4ccccc4n23)[nH]1,-,-,MIC,-,-,-,H37Rv,100 µg/mL
COC(=O)C(C)N1OCC(N)C1=O,-,-,MIC,-,-,-,-,>2500 µM
CCCCOC(=O)CSc1nnc(-c2ccc([N+](=O)[O-])o2)s1,-,-,MIC,-,-,-,H37Rv,>6.25 µg/mL
NC1CON(CCF)C1=O,-,-,MIC,-,-,-,-,>2500 µM
O=[N+]([O-])c1ccc2sc3nnc(SCc4ccc(F)cc4)n3c2c1,-,-,MIC,-,-,-,H37Rv,1 µg/mL
O=C(N/N=C(\COc1ccccc1)N=Cc1cccnc1)c1ccncc1,-,-,MIC,-,-,-,INH-r,50 µg/mL
O=C(N[C@@H](Cc1ccccc1)c1cnc(-c2ccccc2)[nH]1)OCc1ccccc1,-,14 d,MIC,-,-,-,My 331/88,500 µM
O=C1CNN=C(Cn2nc(-c3ccccc3)c3ccccc3c2=O)N1,-,-,inhibition,BACTEC,12.5 µg/mL,-,H37Rv,0%
Cc1ccnc(NS(=O)(=O)c2nnc3sc4ccccc4n23)c1,-,-,MIC,-,-,-,H37Rv,1 µg/mL
CCCCCCCCCCCCCCC(Oc1ccccc1)C(=O)O,-,-,MIC,-,-,-,H37Rv,10 µg/mL
CCCCOC(=O)CSc1nnc(-c2ncc([N+](=O)[O-])n2C)s1,-,-,MIC,-,-,-,H37Rv,0.78 µg/mL
O=C(Nc1ncc([N+](=O)[O-])s1)c1cccc([N+](=O)[O-])c1,-,-,MIC,resazurin,-,-,H37Rv,>6.25 µg/mL
CO[C@H]1CCC[C@H]2C1=C(C(=O)OC(C)OC(=O)OC1CCCCC1)N1C(=O)[C@H]([C@@H](C)O)[C@@H]21,-,-,MIC50,luminescence,-,THP-1,H37Rv,0.85 µM
CC1C(c2ccccc2)OCCN1C(=S)NC(=O)c1ccccc1,-,-,inhibition,resazurin,6.25 µg/mL,-,H37Rv,54%
Cc1ccc(OC/C(N)=N\NC(=O)c2ccncc2)cc1,-,-,MIC,-,-,-,H37Rv(ATCC25584),6.25 µg/mL
O=C(OCc1ccccc1)N1CCC[C@H]1c1cnc(-c2ccccc2)[nH]1,-,21 d,MIC,-,-,-,My 331/88,62.5 µM
COc1c2occc2c(OC)c2c(C)c(C(=O)OCCN3CCOCC3)oc12,-,-,MIC bound,BACTEC,-,-,H37Rv,>12.5 µg/mL
CCCCCCCCCCC(C(=O)O)S(=O)(=O)c1ccc(OC)cc1,-,-,MIC,-,-,-,H37Rv,10 µg/mL
CC(C)C[C@@H]1NC(=O)[C@H](Cc2c[nH]c3ccccc23)NC(=O)[C@@H](CCCN=C(N)N)NC(=O)[C@H](CC(N)=O)NC(=O)[C@H](C(C)C)NC(=O)[C@@H](CC(C)C)NC1=O,-,-,EC50,turbidity,-,-,HN878,0.66 µM
CC(C)C(=O)Cc1cnccn1,-,-,inhibition,BACTEC,12.5 µg/mL,-,H37Rv,9%
CONC(=O)CN1OCC(N)C1=O,-,-,MIC,-,-,-,-,>2500 µM
N#CCC(=O)N/N=C1\C(=O)N(c2ccc(Cl)cc2)C(=O)C(=O)C1c1nc2ccccc2o1,-,-,inhibition,BACTEC,12.5 µg/mL,-,H37Rv,2%
NCc1ccccc1CC(=O)N[C@@H]1C(=O)N2C(C(=O)O)=C(CSc3nnnn3CC(=O)O)CS[C@H]12,-,-,inhibition,broth dilution,12.5 µg/mL,-,65 isolates,62%
O=C1/C(=C/c2ccccc2)CN(C(=O)/C=C/c2ccc(Cl)cc2)C/C1=C\c1ccccc1,-,-,inhibition,-,6.25 µg/mL,-,H37Rv,0%
CC(=O)Nc1ccc(OC/C(N)=N\NC(=O)c2ccncc2)cc1,-,-,MIC,-,-,-,H37Rv(ATCC25584),50 µg/mL
O=C1/C(=C/c2ccccc2)CN(C(=O)c2ccc([N+](=O)[O-])cc2)C/C1=C\c1ccccc1,-,-,inhibition,-,6.25 µg/mL,-,H37Rv,0%
CC(C)C[C@@H]1NC(=O)[C@H](Cc2c[nH]c3ccccc23)NC(=O)[C@@H](CCCN)NC(=O)[C@H](CC(N)=O)NC(=O)[C@H](C(C)C)NC(=O)[C@@H](CC(C)C)NC1=O,-,-,EC50,turbidity,-,-,HN878,1.95 µM
CCOC(=O)c1c(NC(=O)C2C=C(C(F)(F)F)C=C2C(F)(F)F)sc2c1CCN(CC)C2,-,-,MIC,resazurin,-,-,H37Rv,>100 µg/mL
CO/N=C(\C(=O)N[C@@H]1C(=O)N2C(C(=O)O)=C(COC(C)=O)CS[C@H]12)c1csc(N)n1,-,-,inhibition,-,100 µg/mL,-,-,42%
COc1c2ccoc2c(OC)c2oc(=O)ccc12,-,-,MIC90,resazurin,-,-,H37Ra,>400 µg/mL
NC1CONC1=O,-,-,MIC,-,-,-,-,300 µM